Assay results as given in US8221975B2, “Method for detection of microorganism” (Morinaga Milk Industry Co., Ltd., priority 2007, dated 2012).

Tests used:
[1] = test system: Enterobacter sakazakii ATCC 6538P; test: ompA real-time PCR (469 bp) of EMA-treated Enterobacter sakazakii, Ct value; assay type: cell-based; conditions: single-step treatment with 25 μg/ml EMA
[2] = test system: Salmonella enteritidis IIP 604; test: invA real-time PCR (378 bp) of EMA-treated Salmonella, Ct value; assay type: cell-based
[3] = single-step treatment with 25 μg/ml EMA
[4] = single-step treatment with 100 μg/ml EMA

CC[n+]1c(-c2ccccc2)c2cc(N=[N+]=[N-])ccc2c2ccc(N)cc21 [EMA, ethidium monoazide]
detection limit of live cells lower than that in the multi-step treatment [1]: about 2 log10 cells/ml | Ct value in live cells larger than in multi-step treatment (EMA 10/10 μg/ml) ([1]; live cells): about 5.0 | detection limit of live cells lower compared with that in the multi-step treatment [2, 3]: about 1 log10 cells/ml | Ct value in live cells larger than in multi-step treatment (EMA 10/10 μg/ml) [2, 3]: about 2.2 | detection limit of live cells lower compared with that in the multi-step treatment [2, 4]: ~4 log10 cells/ml | Ct value in live cells larger than in multi-step treatment (EMA 10/10 μg/ml) [2, 4]: ~1.7
